Results published in US10633366B2, “Antibacterial compounds” (AZIENDE CHIMICHE RIUNITE ANGELINI FRANCESCO A.C.R.A.F. …, priority 2016, dated 2020).
pIC50: −log10 of the molar value. Only a part of the results on these compounds is given; other tests are left out.

Amino acid sequences for entries named in this document (tags omitted).
UniProt P0AES4, whole entry: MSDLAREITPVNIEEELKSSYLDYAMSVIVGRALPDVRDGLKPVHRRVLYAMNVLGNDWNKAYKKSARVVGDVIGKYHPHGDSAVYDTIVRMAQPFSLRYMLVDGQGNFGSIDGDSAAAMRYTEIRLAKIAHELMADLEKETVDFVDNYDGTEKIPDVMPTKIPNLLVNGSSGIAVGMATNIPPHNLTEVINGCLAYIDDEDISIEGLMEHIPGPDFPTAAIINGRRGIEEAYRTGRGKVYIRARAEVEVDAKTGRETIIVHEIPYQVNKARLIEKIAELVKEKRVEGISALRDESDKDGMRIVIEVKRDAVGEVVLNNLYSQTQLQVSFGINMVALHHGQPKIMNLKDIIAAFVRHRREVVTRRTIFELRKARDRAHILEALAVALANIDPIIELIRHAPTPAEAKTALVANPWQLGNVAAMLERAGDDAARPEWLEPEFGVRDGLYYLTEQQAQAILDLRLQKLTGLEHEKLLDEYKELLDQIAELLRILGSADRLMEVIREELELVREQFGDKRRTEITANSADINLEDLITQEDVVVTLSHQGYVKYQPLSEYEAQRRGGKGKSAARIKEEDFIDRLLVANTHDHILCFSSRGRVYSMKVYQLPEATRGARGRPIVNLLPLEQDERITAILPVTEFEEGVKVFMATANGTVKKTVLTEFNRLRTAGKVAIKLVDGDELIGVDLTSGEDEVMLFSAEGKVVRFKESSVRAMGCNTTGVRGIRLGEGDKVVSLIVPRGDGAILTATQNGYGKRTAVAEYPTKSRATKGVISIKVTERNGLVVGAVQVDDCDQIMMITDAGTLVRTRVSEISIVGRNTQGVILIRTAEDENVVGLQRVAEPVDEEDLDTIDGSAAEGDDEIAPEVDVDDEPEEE
UniProt P0A0K8, whole entry: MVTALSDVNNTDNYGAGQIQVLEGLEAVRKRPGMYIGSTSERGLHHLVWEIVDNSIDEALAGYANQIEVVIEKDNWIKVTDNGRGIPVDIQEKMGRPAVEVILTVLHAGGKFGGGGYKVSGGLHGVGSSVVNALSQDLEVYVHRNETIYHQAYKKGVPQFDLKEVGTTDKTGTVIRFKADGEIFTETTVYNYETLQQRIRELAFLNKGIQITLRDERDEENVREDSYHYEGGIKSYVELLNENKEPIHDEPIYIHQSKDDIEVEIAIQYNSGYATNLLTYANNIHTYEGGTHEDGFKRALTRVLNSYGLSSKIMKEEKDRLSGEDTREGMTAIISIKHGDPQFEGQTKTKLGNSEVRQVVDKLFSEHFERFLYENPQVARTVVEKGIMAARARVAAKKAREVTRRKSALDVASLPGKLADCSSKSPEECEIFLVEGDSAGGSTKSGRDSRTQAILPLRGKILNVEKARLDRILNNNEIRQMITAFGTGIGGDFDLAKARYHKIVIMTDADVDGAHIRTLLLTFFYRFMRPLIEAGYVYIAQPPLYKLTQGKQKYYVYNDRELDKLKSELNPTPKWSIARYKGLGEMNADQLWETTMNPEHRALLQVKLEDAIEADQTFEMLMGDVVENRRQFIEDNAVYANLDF
UniProt P20831, whole entry: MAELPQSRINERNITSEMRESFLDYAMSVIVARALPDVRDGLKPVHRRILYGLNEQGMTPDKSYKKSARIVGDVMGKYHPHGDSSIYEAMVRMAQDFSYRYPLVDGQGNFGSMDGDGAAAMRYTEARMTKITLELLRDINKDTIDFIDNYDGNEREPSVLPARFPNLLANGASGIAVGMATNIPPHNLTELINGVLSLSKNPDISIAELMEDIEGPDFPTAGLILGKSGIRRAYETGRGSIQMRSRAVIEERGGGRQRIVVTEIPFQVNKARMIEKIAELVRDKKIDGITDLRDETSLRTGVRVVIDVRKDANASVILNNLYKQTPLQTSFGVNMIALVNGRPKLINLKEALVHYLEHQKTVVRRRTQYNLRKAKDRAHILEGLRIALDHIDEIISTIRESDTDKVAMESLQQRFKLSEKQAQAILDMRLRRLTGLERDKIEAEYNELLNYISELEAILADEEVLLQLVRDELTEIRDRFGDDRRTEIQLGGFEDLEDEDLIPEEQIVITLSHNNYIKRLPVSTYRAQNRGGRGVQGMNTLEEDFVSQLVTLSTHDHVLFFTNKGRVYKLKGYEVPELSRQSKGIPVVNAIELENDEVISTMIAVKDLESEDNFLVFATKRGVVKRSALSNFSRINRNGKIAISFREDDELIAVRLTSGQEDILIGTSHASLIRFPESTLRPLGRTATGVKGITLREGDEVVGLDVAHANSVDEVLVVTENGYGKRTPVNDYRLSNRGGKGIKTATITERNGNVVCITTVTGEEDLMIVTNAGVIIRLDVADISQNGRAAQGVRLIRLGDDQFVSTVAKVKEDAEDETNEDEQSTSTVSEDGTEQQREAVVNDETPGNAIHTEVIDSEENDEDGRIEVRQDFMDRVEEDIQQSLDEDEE
UniProt P0C1S7, whole entry: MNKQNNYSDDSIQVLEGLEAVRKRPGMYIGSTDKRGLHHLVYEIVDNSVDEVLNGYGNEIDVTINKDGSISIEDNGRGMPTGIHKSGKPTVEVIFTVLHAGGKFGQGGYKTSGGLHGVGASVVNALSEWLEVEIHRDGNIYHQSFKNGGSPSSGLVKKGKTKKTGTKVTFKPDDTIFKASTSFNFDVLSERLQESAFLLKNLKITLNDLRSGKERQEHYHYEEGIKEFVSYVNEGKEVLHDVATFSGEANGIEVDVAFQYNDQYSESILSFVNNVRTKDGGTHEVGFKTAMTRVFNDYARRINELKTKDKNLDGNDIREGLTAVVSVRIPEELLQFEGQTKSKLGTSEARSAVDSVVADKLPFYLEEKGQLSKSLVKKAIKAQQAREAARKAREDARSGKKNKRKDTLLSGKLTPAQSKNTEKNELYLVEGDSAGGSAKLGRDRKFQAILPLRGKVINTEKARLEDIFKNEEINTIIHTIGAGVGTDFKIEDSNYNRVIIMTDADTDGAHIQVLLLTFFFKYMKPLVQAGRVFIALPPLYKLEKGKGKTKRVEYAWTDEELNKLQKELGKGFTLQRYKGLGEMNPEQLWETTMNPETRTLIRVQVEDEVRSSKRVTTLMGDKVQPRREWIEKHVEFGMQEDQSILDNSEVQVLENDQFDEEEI
UniProt P0C1U9, whole entry: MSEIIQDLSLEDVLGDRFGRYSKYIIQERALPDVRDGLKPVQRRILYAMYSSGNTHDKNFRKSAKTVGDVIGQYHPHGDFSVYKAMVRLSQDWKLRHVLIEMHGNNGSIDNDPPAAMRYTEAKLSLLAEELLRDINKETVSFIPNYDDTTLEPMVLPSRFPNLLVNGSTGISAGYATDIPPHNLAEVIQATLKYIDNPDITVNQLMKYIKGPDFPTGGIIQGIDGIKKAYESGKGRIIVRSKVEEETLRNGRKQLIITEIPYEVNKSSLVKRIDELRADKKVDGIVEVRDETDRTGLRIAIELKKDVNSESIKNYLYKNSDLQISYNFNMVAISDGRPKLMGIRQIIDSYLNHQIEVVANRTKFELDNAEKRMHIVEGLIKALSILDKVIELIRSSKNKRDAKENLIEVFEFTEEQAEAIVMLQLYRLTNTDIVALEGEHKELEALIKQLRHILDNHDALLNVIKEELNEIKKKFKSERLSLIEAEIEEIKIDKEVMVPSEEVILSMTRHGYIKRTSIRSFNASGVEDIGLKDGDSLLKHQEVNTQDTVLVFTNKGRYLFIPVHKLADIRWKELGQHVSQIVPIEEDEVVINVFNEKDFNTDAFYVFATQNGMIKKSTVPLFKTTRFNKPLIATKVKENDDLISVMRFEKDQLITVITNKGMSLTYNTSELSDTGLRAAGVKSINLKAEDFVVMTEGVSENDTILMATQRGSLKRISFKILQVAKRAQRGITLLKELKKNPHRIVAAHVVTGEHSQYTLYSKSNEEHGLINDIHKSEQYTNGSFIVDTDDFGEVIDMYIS
UniProt P0AFI2, whole entry: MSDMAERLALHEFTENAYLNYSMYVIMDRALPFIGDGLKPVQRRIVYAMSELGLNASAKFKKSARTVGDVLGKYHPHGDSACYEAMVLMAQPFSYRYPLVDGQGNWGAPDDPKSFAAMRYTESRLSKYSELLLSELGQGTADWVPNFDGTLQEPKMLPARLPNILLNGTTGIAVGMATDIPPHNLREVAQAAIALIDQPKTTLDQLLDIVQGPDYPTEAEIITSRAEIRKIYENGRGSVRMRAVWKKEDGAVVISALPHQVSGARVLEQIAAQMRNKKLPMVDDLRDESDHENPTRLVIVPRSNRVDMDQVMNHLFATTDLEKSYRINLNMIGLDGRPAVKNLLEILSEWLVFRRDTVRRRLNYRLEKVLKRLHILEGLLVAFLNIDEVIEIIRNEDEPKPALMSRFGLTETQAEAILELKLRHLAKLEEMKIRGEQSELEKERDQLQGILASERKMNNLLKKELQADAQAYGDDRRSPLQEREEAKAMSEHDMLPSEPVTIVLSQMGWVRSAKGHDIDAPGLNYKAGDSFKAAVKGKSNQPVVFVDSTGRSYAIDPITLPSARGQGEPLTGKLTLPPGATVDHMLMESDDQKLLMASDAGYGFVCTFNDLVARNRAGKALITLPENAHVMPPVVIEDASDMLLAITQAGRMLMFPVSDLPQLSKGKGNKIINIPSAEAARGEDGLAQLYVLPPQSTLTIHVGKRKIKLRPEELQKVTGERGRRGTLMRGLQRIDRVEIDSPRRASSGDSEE
UniProt P20083, whole entry: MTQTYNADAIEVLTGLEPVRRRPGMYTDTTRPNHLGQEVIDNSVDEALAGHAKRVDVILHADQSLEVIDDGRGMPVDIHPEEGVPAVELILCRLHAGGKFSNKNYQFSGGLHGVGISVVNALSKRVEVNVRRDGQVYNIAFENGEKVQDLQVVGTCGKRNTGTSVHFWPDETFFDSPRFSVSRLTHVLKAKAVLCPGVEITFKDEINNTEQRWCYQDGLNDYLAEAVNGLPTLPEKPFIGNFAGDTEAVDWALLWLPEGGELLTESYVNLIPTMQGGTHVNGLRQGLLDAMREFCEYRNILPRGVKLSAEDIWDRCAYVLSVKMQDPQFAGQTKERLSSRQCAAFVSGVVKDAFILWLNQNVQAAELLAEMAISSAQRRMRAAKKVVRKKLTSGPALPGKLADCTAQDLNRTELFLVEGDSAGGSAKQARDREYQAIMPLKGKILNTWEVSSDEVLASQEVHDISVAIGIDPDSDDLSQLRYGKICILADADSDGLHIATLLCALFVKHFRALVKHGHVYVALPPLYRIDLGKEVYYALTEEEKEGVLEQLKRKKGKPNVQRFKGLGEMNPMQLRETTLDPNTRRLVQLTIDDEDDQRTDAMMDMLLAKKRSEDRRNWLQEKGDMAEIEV

How the values were obtained:
Type in all cases: biochemical
E. coli DNA gyrase = E. coli DNA gyrase (Escherichia coli, UniProt P0AES4+P0AES6); test: DNA gyrase supercoiling assay (E. coli)
S. aureus DNA gyrase = S. aureus DNA gyrase (Staphylococcus aureus, UniProt P0A0K8+P20831); test: DNA gyrase supercoiling assay (S. aureus)
[1] = target: S. aureus Topoisomerase IV (Staphylococcus aureus, UniProt P0C1S7+P0C1U9); test: Topoisomerase IV decatenation assay (S. aureus)
E. coli Topoisomerase IV = E. coli Topoisomerase IV (Escherichia coli, UniProt P0AFI2+P20083); test: Topoisomerase IV decatenation assay (E. coli)
[2] = compound conc. 50 μM, percent of inhibition versus positive control, n/a = not active
[3] = read-out: IC50 DNA gyrase, Table 3, eight half-log concentrations ranging from 0.1 to 300 μM
[4] = read-out: IC50 Topo IV, Table 3, eight half-log concentrations ranging from 0.1 to 300 μM

## O=C1COc2ncc(F)cc2N1C1CCN(CCc2cc3c(=O)oc4ccc(F)cc4c3[nH]2)CC1
E. coli DNA gyrase; [2]
  % inhibition DNA gyrase: 79%
E. coli DNA gyrase; [3]
  pIC50: 6.60
S. aureus DNA gyrase; [2]
  % inhibition DNA gyrase: 60%
S. aureus DNA gyrase; [3]
  pIC50: 6.31
[1]; [2]
  % inhibition Topo IV: 50%
[1]; [4]
  pIC50: 6.16
E. coli Topoisomerase IV; [2]
  % inhibition Topo IV: 50%
E. coli Topoisomerase IV; [4]
  pIC50: 5.22
